Anti-infective test results gathered from many reports (values: NIAID ChemDB through PubChem).

Common to all: growth or infection tests; agent: Mycobacterium tuberculosis

a–b is a range or a potency band. An empty or dashed field is not shown. Conditions beyond the fields shown may differ between rows. MIC bound: limit read from a one-dose screen. MIC50, MIC90 and the like: level of inhibition, or share of isolates inhibited. ECn is the concentration giving n% inhibition of infection, replication or growth. Percent inhibition refers to the dose given; in toxicity tests it is the harm to the cells.

structure,strain or isolate,mutations,cell line,method,conditions,endpoint,dose,value
O=C(CCC(F)(F)F)N1CCC(c2cc(C(F)(F)F)ccn2)CC1,H37Rv,,THP-1,fluorescence,,EC50,,0.05–0.25 µM
CCOC(=O)C1=C(C)NC(=S)NC1c1ccccc1,H37Rv,,,,,EC50,,>10 µg/mL
CCc1cc(C(N)=S)ccn1,pMV261,,,,,MIC,,1 µg/mL
CCOC(=O)c1ccc(N2CCN(CCn3c(-c4ccccc4)nc4cc(C(=O)OCC)ccc43)CC2)c(N)c1,H37Rv,,,resazurin,,MIC,,6.219 µM
N#CCNS(=O)(=O)c1ccc(-c2nnn(Cc3ccc(F)cc3)n2)cc1,H37Rv,,,resazurin,,MIC,,<0.1 µM
COc1cc(C(=O)NC(=S)Nc2ccc(C)c(F)c2)cc(OC)c1OC,H37Rv,,,BACTEC,,inhibition,12.5 µg/mL,84%
O=C(Oc1ccc(Br)cc1C(=O)Nc1ccc(C(F)(F)F)cc1)c1ccccc1,9449/2006,,,broth dilution,21 d,MIC,,1 µM
O=CNNc1ccc2nnc(Cl)n2n1,H37Rv,,,BACTEC,,inhibition,12.5 µg/mL,0%
CO[C@H]1/C=C/O[C@@]2(C)Oc3c(C)c(O)c4c(O)c(c(/C=N/N5CCN(C)CC5)c(O)c4c3C2=O)NC(=O)/C(C)=C\C=C\[C@H](C)[C@H](O)[C@@H](C)[C@@H](O)[C@@H](C)[C@H](OC(C)=O)[C@@H]1C,Clinical isolate 30425,,,broth dilution,,MIC,,≤1 µM
CC(=O)N1CCC23c4ccccc4N(C)C2CC(=O)CC13,H37Rv,,,BACTEC,,inhibition,12.5 µg/mL,18%
NC(=O)c1cnccn1,H37Ra,,,visual reading,,MIC,,>6500 µM
O=C(CCC(F)(F)F)N1CCC(c2ccc(F)cn2)CC1,H37Rv,,THP-1,fluorescence,,EC50,,0.05–0.25 µM
COc1cc(Cc2cnc(N)nc2N)cc(OC)c1OCCCNc1ccc(S(=O)(=O)c2ccc([N+](=O)[O-])cc2)cc1,H37Rv,,,,,MIC,,3.6 µM
CCOC(=O)C1=C(C)NC(=O)NC1c1cc(OC)c(OC)c(OC)c1,H37Rv,,,,,EC50,,>10 µg/mL
O=S(=O)(NCCO)c1ccc(-c2nnn(Cc3cccnn3)n2)cc1,H37Rv,,,resazurin,,MIC,,10–25 µM
NNC(=O)c1ccncc1,Clinical Isolate 913,,,broth dilution,,MIC,,≤0.2 µM
CCOC(=O)C(C1=C(O)c2ccccc2C(=O)C1=O)C1=C(O)c2ccccc2C(=O)C1=O,H37Rv,,,BACTEC,,inhibition,12.8 µg/mL,12%
O=C1NC(=S)N/C1=C\c1c(Cl)cccc1Cl,H37Rv,,,BACTEC,,EC50,,>6.25 µg/mL
Cc1c2c(c(C)c3c1[nH]c1ccccc13)C(C#N)N(C(=O)c1ccccc1)C=C2,H37Rv,,,resazurin,,inhibition,6.25 µg/mL,102%
O=C(NN=C1CCCC1)c1ccncc1,,,,,,MIC90,,1.2 µg/mL
NC1[C@H]2CN(c3nc4c(cc3F)c(=O)c(C(=O)O)cn4-c3ccc(F)cc3F)C[C@@H]12,44 isolates (resistant),,,,,MIC90,,128 µg/mL
O=C(CCC(F)(F)F)N1CCC(c2cnc(F)c(F)c2)CC1,H37Rv,,THP-1,fluorescence,,EC50,,<0.05 µM
COc1cc(Cc2cnc(N)nc2N)cc(OC)c1OCCCNc1ccc(S(=O)(=O)c2ccc(C)cc2)cc1,H37Rv,,,,,MIC,,28.4 µM
O=C1NC(=S)N/C1=C/c1ccc(F)cc1,H37Rv,,,BACTEC,,inhibition,6.25 µg/mL,75%
COC(=O)c1cc(C2CCCC2)nc2ccccc12,H37Rv,,,,,MIC,,>6.25 µg/mL
Cc1c(N2CC3CCCNC3C2)c(F)cc2c(=O)c(C(=O)O)cn([C@@H]3C[C@@H]3F)c12,71 (RFP-resistant),,,,,MIC,,0.05 µg/mL
O=C1NC(=S)N/C1=C\c1cccc([N+](=O)[O-])c1,H37Rv,,,BACTEC,,inhibition,6.25 µg/mL,29%
CC(C)(C)C1CCC(=NNC(=O)c2ccncc2)CC1,INH resistant,,,,,MIC,,>0.75 µg/mL
O=S(=O)(NCCO)c1ccc(-c2nnn(Cc3ccc(F)cn3)n2)c(F)c1F,H37Rv,,,resazurin,,MIC,,<0.1 µM
CCOC(=O)C1=C(C)NC(=O)NC1c1ccccc1Cl,H37Rv,,,,,EC50,,>10 µg/mL
COc1ccc(Cc2cnc(N)nc2N)cc1OCc1ccc(S(=O)(=O)c2ccc(N)cc2)cc1,H37Rv,,,,,MIC,,61.1 µM
CCCCC(O)CN(/N=C/c1ccc([N+](=O)[O-])o1)C(N)=O,H37Rv,,,BACTEC,,MIC,,≥12.5 µg/mL
O=C1NC(=S)N/C1=C/c1cccc(OCc2ccccc2)c1,H37Rv,,,BACTEC,,inhibition,6.25 µg/mL,94%
O=C(Oc1ccc(Cl)cc1C(=O)Nc1cccc(Cl)c1)c1ccccc1,331/88 (H37Rv),,,broth dilution,21 d,MIC,,2 µM
COC(=O)c1cc(C2CCCC2)c2c(C3CCCC3)cccc2n1,H37Rv,,,,,MIC,,1 µg/mL
Cc1cccc(/C=C2/NC(=S)NC2=O)c1,H37Rv,,,BACTEC,,inhibition,6.25 µg/mL,88%
O=C(Oc1ccc(Cl)cc1C(=O)Nc1ccc(Cl)c(Cl)c1)c1ccccc1,9449/2006,,,broth dilution,14 d,MIC,,0.5 µM
O=C(OCCN=C1c2ccccc2CCc2ccccc21)c1cc([N+](=O)[O-])cc([N+](=O)[O-])c1,H37Rv,,,BACTEC,,MIC bound,,>12.5 µg/mL
Cc1cc(C2CCCC2)nc2c(C3CCCC3)cccc12,H37Rv,,,,,MIC,,6.25 µg/mL
O=C(CCl)NNC1=Nc2ccc(Cl)cc2SC1,H37Rv,,,BACTEC,,inhibition,12.5 µg/mL,87%
C=C(NC(=O)c1csc(-c2nc3c(cc2O)-c2nc(cs2)C(=O)N[C@@H]([C@@H](C)O)C(=O)N/C(=C(\C)OC)c2nc(cs2)C(=O)N[C@@H]2c4nc(cs4)C(=O)N[C@@H](COC(=O)c4c5c6c(cccc6n4O)COC(=O)[C@@H](O[C@H]4C[C@](C)(O)[C@H](N(C)C)[C@H](C)O4)[C@H]2OC5)c2nc-3cs2)n1)C(N)=O,H37Rv,,,broth dilution,,MIC,,≤2.5 µM
CN(C)CCCN1c2ccccc2Sc2ccc(Cl)cc21,Isolate E (drug-resistant),,,,,MBC,,30 µg/mL
O=S(=O)(NCCO)c1ccc(-c2cn(Cc3ccc(F)cc3)nn2)cc1,H37Rv,,,resazurin,,MIC,,<0.1 µM
COC(=O)NS(=O)(=O)n1cc[n+](C)c1,H37Rv,,,BACTEC,,MIC bound,,>12.5 µg/mL
CCOC(=O)C1=C(C)NC(=S)NC1c1ccc(OC)cc1,H37Rv,,,,,EC50,,>10 µg/mL
CCC1CN(c2c(F)cc3c(=O)c(C(=O)O)cn(C4CC4)c3c2OC)CCN1,51 (RFP-resistant),,,,,MIC,,1 µg/mL
O=C(Oc1ccc(Cl)cc1C(=O)Nc1ccc(C(F)(F)F)cc1)c1ccccc1,7357/1998,,,broth dilution,21 d,MIC,,0.5 µM
COC(=O)c1cnc2ccccc2c1C1C2CC3CC(C2)CC1C3,H37Rv,,,,,MIC,,>6.25 µg/mL
CNC(=O)c1ccc[n+](C2OC(COC(C)=O)C(OC(C)=O)C2OC(C)=O)c1.[Br-],H37Rv,,,BACTEC,,MIC,,≥12.5 µg/mL
CC(C)=NNC(=O)c1ccncc1,,,,,,MIC90,,0.4 µg/mL
CO[C@H]1/C=C/O[C@@]2(C)Oc3c(C)c(O)c4c(O)c(c(/C=N/N5CCN(Cc6ccccc6)CC5)c(O)c4c3C2=O)NC(=O)/C(C)=C\C=C\[C@H](C)[C@H](O)[C@@H](C)[C@@H](O)[C@@H](C)[C@H](OC(C)=O)[C@@H]1C,INH-r,,,,,MIC,,0.01 µg/mL
C[C@H]1COc2c(N3CCN(C)CC3)c(F)cc3c(=O)c(C(=O)O)cn1c23,44 isolates (resistant),,,,,MIC90,,1 µg/mL
C[C@H]1[C@H](C)CC[C@]2(C(=O)O)CC[C@]3(C)C(CC[C@@H]4[C@@]5(C)C[C@H](O)CC(C)(C)[C@@H]5CC[C@]43C)[C@H]12,STR-R (ATCC 35820),,,resazurin,,MIC,,12.5 µg/mL
O=C(O)Cc1cc(C2CCCCC2)nc2ccccc12,H37Rv,,,,,inhibition,6.25 µg/mL,15%
O=C(CCC(F)(F)F)N1CCC(c2cncc(F)c2)CC1,H37Rv,,THP-1,fluorescence,,EC50,,0.05–0.25 µM
COC1=CC2OC3OC(=O)CC3C2C(OCc2ccccc2)=C1,H37Rv,,,BACTEC,,inhibition,12.5 µg/mL,-3%
COc1cc(-c2nnn(Cc3ccncc3)n2)ccc1S(=O)(=O)NCC#N,H37Rv,,,resazurin,,MIC,,<0.1 µM
CCCCN1CCN(c2ccc3nc(-c4ccc5nc(-c6ccc(OCC)cc6)[nH]c5c4)[nH]c3c2)CC1,H37Ra,,,broth dilution / turbidity,,MIC90,,1.78 µg/mL
CC(=C\c1ccccc1)/C=C1/NC(=S)NC1=O,H37Rv,,,BACTEC,,EC50,,<6.25 µg/mL
C=C[C@@H](O)C#CC#CC[C@H]1O[C@H]1CCCCCCC,H37Ra,,,resazurin,,EC50,,23.5 µM
COc1cc(Cc2cnc(N)nc2N)cc(OC)c1OCCCNc1ccc(S(=O)(=O)c2ccc(N)cc2)cc1,H37Rv,,,,,MIC,,4.1 µM
Cc1c2c(cc3c1[nH]c1ccccc13)C(c1ccc(Cl)cc1)=NCC2,H37Rv,,VERO,,,MIC,,3.13 µg/mL
O=C1NC(=S)N/C1=C/c1ccc(Cl)cc1,H37Rv,,,BACTEC,,EC50,,<6.25 µg/mL
CN(C)CCN(C)P12(Oc3ccccc3O1)Oc1c(Cl)c(Cl)c(Cl)c(Cl)c1O2,H37Rv,,,BACTEC,,inhibition,6.25 µg/mL,0%
O=C(Nc1cccc(F)c1)c1cc(Cl)ccc1O,331/88 (H37Rv),,,broth dilution,21 d,MIC,,8 µM
O=C1C(Cl)=C(Nc2ccc3cn[nH]c3c2)C(=O)c2ccccc21,H37Rv,,,BACTEC,,MIC bound,,≤12.5 µg/mL
CCOC(=O)c1ccc(N2CCN(CCn3c(-c4cncc(-c5ccc(F)cc5)c4)nc4cc(C(=O)OCC)ccc43)CC2)c(N)c1,H37Rv,,,resazurin,,MIC,,0.112 µM
Nc1ccc(C(=O)O)c(O)c1,7800,,,,,EC50,,<0.76 µM
C=CCOc1cccc(/C=C2/NC(=S)NC2=O)c1,H37Rv,,,BACTEC,,inhibition,6.25 µg/mL,93%
CO/C(C)=C1/NC(=O)[C@H]([C@@H](C)O)NC(=O)c2csc(n2)-c2cc(O)c(-c3nc(C(=O)NCCCN4CCOCC4)cs3)nc2-c2csc(n2)[C@@H]2COC(=O)c3c4c5c(cccc5n3O)COC(=O)[C@@H](O[C@H]3C[C@](C)(O)[C@H](N(C)C)[C@H](C)O3)[C@@H](OC4)[C@H](NC(=O)c3csc1n3)c1nc(cs1)C(=O)N2,Clinical isolate 565,Multidrug-resistant,,broth dilution,,MIC,,2.5–25 µM
NNC(=O)c1ccncc1,H37Rv,,,broth dilution,,MIC,,0.73 µM
CCN(CC)c1ccc(N=C2C=CC(=O)C(NC(C)=O)=C2)c(C)c1,H37Rv,,VERO,BACTEC,,MIC,,3.13 µg/mL
CCCCOC(=O)c1ccc2nc[nH]c2c1,H37Ra,,,visual reading,,MIC,,200 µM
COc1cc2c(cc1OC)-c1cc3ccc(OC)c(OC)c3c[n+]1CC2,H37Rv,,,BACTEC,,inhibition,12.5 µg/mL,25%
O=C(O)c1cn(C2CC2F)c2c(Cl)c(N3CC4CCCNC4C3)c(F)cc2c1=O,68 (RFP-susceptible),,,,,MIC,,0.025 µg/mL
CCOC(=O)/C=C1/CCC(C)n2c1nccc2=O,H37Rv,,,resazurin,,MIC bound,,>6.25 µg/mL
CCOC(=O)c1ccc(N2CCN(CCn3c(-c4ccc(OC(F)(F)F)cc4)nc4cc(C(=O)OCC)ccc43)CC2)c(N)c1,INHR-MTB,Isoniazid-resistant,,resazurin,,MIC,,16.25 µM
Nc1ccc2nc3cc(Nc4ccccc4)c(=Nc4ccccc4)cc-3n(-c3ccccc3)c2c1,CS-R,,,,,MIC,,0.2 µg/mL
O=C(O)c1cnc2ccccc2c1,H37Rv,,,,,MIC,,>6.25 µg/mL
Cc1cccc(N2CCN(c3ccc4nonc4c3[N+](=O)[O-])CC2)c1,H37Rv,,,resazurin,,inhibition,6.25 µg/mL,37%
O=C1NC(=S)N/C1=C/c1ccc(C(F)(F)F)cc1,H37Rv,,,BACTEC,,inhibition,6.25 µg/mL,92%